Compound potency records, mixed from different reports. Data source: NIAID ChemDB in PubChem.

Shared fields: growth or infection tests; organism: HIV-1

ECn is the concentration giving n% inhibition of infection, replication or growth.

SMILES,read by,endpoint,setting,mutations,strain or isolate,cell line,value
CC(C)[C@@H]1[C@H](OC(=O)N[C@@H](Cc2ccccc2)[C@H](O)CN2C[C@H]3CCC[C@H]3C[C@H]2C(=O)NC(C)(C)C)CCS1(=O)=O,p24,EC50,,,IIIB,MT-4,<0.1 µM
COc1cccc(CN2C(=O)N(Cc3cccc(C(=O)Nc4ccc(C)cn4)c3)[C@H](Cc3ccccc3)[C@H](O)[C@@H](O)[C@H]2Cc2ccccc2)c1,,EC50,,,RF,MT-2,<0.0416 µM
CCNC(=O)OC[C@H]1O[C@@H](n2cc(C)c(=O)[nH]c2=O)C[C@@H]1N=[N+]=[N-],p24 / antigen / absorbance,EC50,,,899A,MT-4,45 µM
CC[C@H]1OC(=O)[C@H](C)[C@@H](O[C@H]2C[C@@](C)(OC)[C@@H](O)[C@H](C)O2)[C@H](C)[C@@H](O[C@@H]2O[C@H](C)C[C@H](N(C)C)[C@H]2O)[C@](C)(O)C[C@@H](C)C(=O)[C@H](C)[C@@H](O)[C@]1(C)O,RT activity,EC90,,,LAV,PBMC,>1000 µg/mL
Cc1cn([C@H]2C[C@H](N=[N+]=[N-])[C@@H](CO)O2)c(=O)[nH]c1=O,syncytia,EC50,,,,CEM,0.1 µM
CC(C)(C)NC(=O)[C@@H]1CN(Cc2cc3sccc3s2)CCN1C[C@@H](O)C[C@@H](Cc1cccnc1)C(=O)N[C@H]1c2ccccc2C[C@H]1O,p24,EC50,,,IIIB,H9,<0.006 µM
CCCC[C@H]1[C@@H](OC(=O)N[C@@H](Cc2ccccc2)[C@H](O)CN2C[C@H]3CCCC[C@H]3C[C@H]2C(=O)NC(C)(C)C)CCS1(=O)=O,p24,EC50,,,IIIB,MT-4,<0.4 µM
CCc1c(C(=O)c2cc(C)cc(C)c2)n(CC2CC=CC2)c(=O)[nH]c1=O,cytopathic effect / XTT,EC50,clinical isolate,,CLADE F,PBMC,0.003 µM
COc1ccc2ccc(=O)oc2c1CC=C(C)C,,EC50,,,,H9,0.155 µg/mL
CCOCn1c(Cc2ccccc2)c(C(C)C)c(=O)[nH]c1=O,syncytia,EC50,,,IIIB,CEM,0.01 µM
Cc1ccc(-c2ccc3c(c2)C=C(C(=O)Nc2ccc(C[N+](C)(C)C4CCOCC4)cc2)CCC3)cc1,,EC50,,,Clinical isolate RM,PBMC,0.05 µg/mL
C[C@H]1[C@@H](OC(=O)N[C@@H](Cc2ccccc2)[C@H](O)CN2C[C@H]3CCC[C@H]3C[C@H]2C(=O)NC(C)(C)C)CCS1(=O)=O,p24,EC50,,,IIIB,MT-4,<0.1 µM
COc1cccc(CN2C(=O)N(Cc3cccc(C(=O)Nc4ccccn4)c3)[C@H](Cc3ccccc3)[C@H](O)[C@@H](O)[C@H]2Cc2ccccc2)c1,,EC50,,,RF,MT-2,<0.03 µM
CC[C@H]1OC(=O)[C@H](C)[C@@H](O[C@H]2C[C@@](C)(OC)[C@@H](O)[C@H](C)O2)[C@H](C)[C@@H](O[C@@H]2O[C@H](C)C[C@H](N(C)C)[C@H]2O)[C@](C)(OC)C[C@@H](C)C(=O)[C@H](C)[C@@H](O)[C@]1(C)O,RT activity,EC90,,,LAV,PBMC,>600 µM
O=C(Nc1ccccn1)c1cccc(CN2C(=O)N(Cc3cccc(C(=O)Nc4ccccn4)c3)[C@H](Cc3ccccc3)[C@H](O)[C@@H](O)[C@H]2Cc2ccccc2)c1,,EC50,,,RF,MT-2,<0.0028 µM
CC1(C)O[C@@H]1COc1c2occc2cc2ccc(=O)oc12,,EC50,,,,H9,2.37 µg/mL
CC(C)(C)NC(=O)[C@@H]1CN(Cc2cc3ccsc3s2)CCN1C[C@@H](O)C[C@@H](Cc1ccncc1)C(=O)N[C@H]1c2ccccc2C[C@H]1O,p24,EC50,,,IIIB,H9,<0.006 µM
Cc1cn([C@H]2C[C@H](F)[C@@H](CO)O2)c(=S)[nH]c1=O,syncytia,EC50,,,,PBMC,0.5 µM
CC(C)(C)NC(=O)[C@@H]1CN(Cc2cc3ccsc3s2)CCN1C[C@@H](O)C[C@@H](Cc1cccnc1)C(=O)N[C@H]1c2ccccc2C[C@H]1O,p24,EC50,,,IIIB,H9,<0.006 µM
Cc1ccnc2c1NC(=O)c1cccnc1N2C1CC1,syncytia,EC50,,,IIIB,CEM,0.03 µM
CC1(C)OC1COc1c2ccoc2cc2oc(=O)ccc12,,EC50,,,,H9,1.05 µg/mL
Cc1cn([C@H]2C[C@H](N=[N+]=[N-])[C@@H](CO)O2)c(=O)[nH]c1=O,,EC50,,RT-W88C,HX88C (RT-W88C),HT4LACZ-1 + HT4 LacZ-1,0.0097 µM
CCn1cc(C(=O)O)c(=O)c2cc(F)c(N3CCN(c4ncccn4)CC3)c(OC(F)F)c21,cytopathic effect / MTT,EC50,,,IIIB,MT-4,0.61 µM
Cc1cn([C@H]2C[C@H](N=[N+]=[N-])[C@@H](CO)O2)c(=O)[nH]c1=O,,EC50,,,,H9,0.032 µg/mL
COc1ccccc1N1CCN(c2c(F)cc3c(=O)c(C(=O)O)cn(C4CC4)c3c2OC(F)F)CC1,cytopathic effect / MTT,EC50,,,IIIB,MT-4,0.26 µM
Cc1cn([C@H]2C[C@H](N=[N+]=[N-])[C@@H](CO)O2)c(=O)[nH]c1=O,RT activity,EC50,,,,CEM,>0.00015 µg/mL
O=C(O)P(=O)(O)O,,EC50,,,HX,HT4LACZ-1 + HT4 LacZ-1,41 µM
Cn1cnc2c(NCc3ccccc3)nc(NCCO)nc21,p24,EC50,,,THA/92/00 NSI CLADE E,PBMC,>10 µM
Nc1cccc(CN2C(=O)N(Cc3cccc(C(=O)Nc4ncc[nH]4)c3)[C@H](Cc3ccccc3)[C@H](O)[C@@H](O)[C@H]2Cc2ccccc2)c1,,EC50,,,RF,MT-2,<0.0262 µM
Cc1cn([C@@H]2O[C@H](CO[Si](C)(C)C(C)(C)C)C3(OS(=O)(=O)C=C3N)[C@H]2O[Si](C)(C)C(C)(C)C)c(=O)n(C)c1=O,syncytia,EC50,,,IIIB,CEM,0.07 µM
Cc1cn([C@H]2C[C@H](F)[C@@H](CP(=O)(O)O)O2)c(=S)[nH]c1=O,syncytia,EC50,,,,MT-2,0.5 µM
CC[C@@H]1[C@H](OC(=O)N[C@@H](Cc2ccccc2)[C@H](O)CN2C[C@H]3CCCC[C@H]3C[C@H]2C(=O)NC(C)(C)C)CCS1(=O)=O,p24,EC50,,,IIIB,MT-4,<0.8 µM
CCn1cc(C(=O)O)c(=O)c2cc(F)c(N3CCN(c4ccccc4OC)CC3)c(OC(F)F)c21,cytopathic effect / MTT,EC50,,,IIIB,MOLT-4,0.061 µM
COc1cc(CN2C(=O)N(Cc3cccc(C(=O)Nc4ccc(C)cn4)c3)[C@H](Cc3ccccc3)[C@H](O)[C@@H](O)[C@H]2Cc2ccccc2)cc(OC)c1,,EC50,,,RF,MT-2,<0.2817 µM
Cc1cn([C@H]2C[C@H](N=[N+]=[N-])[C@@H](CO)O2)c(=O)[nH]c1=O,p24 / ELISA,EC50,,,899A,MT-4,0.037 µM
CC(C)(C)NC(=O)[C@@H]1CN(Cc2c(F)cccc2F)CCN1C[C@@H](O)C[C@@H](Cc1ccncc1)C(=O)N[C@H]1c2ccccc2C[C@H]1O,p24,EC50,,,IIIB,H9,<0.025 µM

Again, the opening 3 rows:

SMILES	read by	endpoint	setting	mutations	strain or isolate	cell line	value
CC(C)[C@@H]1[C@H](OC(=O)N[C@@H](Cc2ccccc2)[C@H](O)CN2C[C@H]3CCC[C@H]3C[C@H]2C(=O)NC(C)(C)C)CCS1(=O)=O	p24	EC50			IIIB	MT-4	<0.1 µM
COc1cccc(CN2C(=O)N(Cc3cccc(C(=O)Nc4ccc(C)cn4)c3)[C@H](Cc3ccccc3)[C@H](O)[C@@H](O)[C@H]2Cc2ccccc2)c1		EC50			RF	MT-2	<0.0416 µM
CCNC(=O)OC[C@H]1O[C@@H](n2cc(C)c(=O)[nH]c2=O)C[C@@H]1N=[N+]=[N-]	p24 / antigen / absorbance	EC50			899A	MT-4	45 µM

Conditions beyond the fields shown may differ between rows. Blank or dashed fields: not listed here.